Compound potency records, mixed from different reports. Data source: NIAID ChemDB in PubChem.

Shared fields: growth or infection tests; organism: HIV-1; measure: inhibition

Conditions beyond the fields shown may differ between rows. Percent inhibition refers to the dose given; in toxicity tests it is the harm to the cells. Blank or dashed fields: not listed here. Two numbers with a dash give a range or band.

smiles	strain or isolate	cell line	dose	conditions	method	result
O=C(NCCc1ccccc1)Nc1nc2ccccc2s1	-	MT-4	1 µg/mL	-	RT activity	77%
Cc1ccc(-c2ccc3c(c2)C=C(C(=O)Nc2ccc(C[N+](C)(C)C4CCOCC4)cc2)CCC3)cc1	COT6 CLADE C	PBMC	1 µM	-	p24	32.9%
Cc1cccc2sc(NC(=O)NCCc3ccccc3)nc12	-	MT-4	10 µg/mL	-	cytopathic effect / XTT	28%
O=C(C(=O)N1CCN(C(=O)c2ccccc2)CC1)c1c[nH]c2cc(F)c(F)cc12	-	HeLa + HELA CD4+/CCR5	10 µM	-	luciferase	63%
O=C(NCCc1ccccc1)Nc1ccccn1	-	MT-4	100 µg/mL	-	cytopathic effect / XTT	6%
CCCCCCCCCCCCCCCCOP(=O)(OC[C@H]1OC(O)[C@@H](O)[C@@H](O)[C@@H]1O)OC[C@H]1O[C@@H](n2cc(C)c(=O)[nH]c2=O)C[C@@H]1N=[N+]=[N-]	LAV-Bru	PBL	25 µM	7 d	RT activity	93%
O=C(NCCc1ccccc1)Nc1nc(-c2ccc(Cl)cc2)cs1	-	MT-4	100 µg/mL	-	cytopathic effect / XTT	18%
Cc1cn([C@H]2C[C@H](N=[N+]=[N-])[C@@H](COP(=O)(O)OCCO[C@H]3O[C@H](CO)[C@@H](O)[C@H](O)[C@@H]3O)O2)c(=O)[nH]c1=O	LAV-Bru	CEM	25 µM	22 d	RT activity	90%
O=C(NCCc1ccccc1)Nc1cnccn1	-	MT-4	100 µg/mL	-	RT activity	100%
CCCCCC1CN(C(=O)c2ccccc2)CCN1C(=O)C(=O)c1c[nH]c2c(C(=O)OC)cccc12	-	HeLa + HELA CD4+/CCR5	10 µM	-	luciferase	92%
CC(=O)CCC(=O)NCCCOCCOCCCNC(=O)CNC(=O)[C@H](CS)NC(=O)[C@@H](NC(=O)[C@@H](NC(=O)[C@H](CO)NC(=O)[C@@H](N)CS)C(C)C)[C@@H](C)O	BaL	PBMC(PHA STIM.) + PBMC	1.32 µM	-	p24	35%
CC(C)(C)OC(=O)Nc1ccc(C(=O)N2CCN(C(=O)C(=O)c3c[nH]c4cccc(Cl)c34)CC2)cc1	-	HeLa + HELA CD4+/CCR5	10 µM	-	luciferase	93%
CC1(C)[C@@H](O[C@H]2O[C@H](C(=O)O)[C@@H](O)[C@H](O)[C@H]2O[C@@H]2O[C@H](C(=O)O)[C@@H](O)[C@H](O)[C@H]2O)CC[C@]2(C)[C@H]3C(=O)C=C4[C@@H]5C[C@@](C)(C(=O)O)CC[C@]5(C)CC[C@@]4(C)[C@]3(C)CC[C@@H]12	IIIB	MOLT-4	1200 µM	6 d	RT activity	49.5%
CCCCCCCCCCCCCCCCOP(=O)(OCCO[C@@H]1O[C@H](CO)[C@@H](O)[C@H](O)[C@@H]1O)OC[C@H]1O[C@@H](n2cc(C)c(=O)[nH]c2=O)C[C@@H]1N=[N+]=[N-]	LAV-Bru	CEM	1 µM	15 d	RT activity	71%
C[C@@H]1CN(C(=O)c2ccc(N)cc2)CCN1C(=O)C(=O)c1c[nH]c2c(F)ccc(F)c12	-	HeLa + HELA CD4+/CCR5	10 µM	-	luciferase	>98%
CC(C)[C@H](NC(=O)[C@H](CO)NC(=O)[C@@H](N)CSSCC(=O)O)C(=O)N[C@H](C(=O)N[C@@H](CSSCC(=O)O)C(=O)NCC(=O)O)[C@@H](C)O	IIIB	PBMC(PHA STIM.) + PBMC	0.132 µM	-	p24	58%
COC(=O)c1cccc2[nH]cc(C(=O)C(=O)N3CCN(C(=O)c4ccccc4)CC3CO)c12	-	HeLa + HELA CD4+/CCR5	10 µM	-	luciferase	84%
O=C1[C@@H](Cc2ccccc2)NC(=S)N1c1ccccc1	-	MT-4	1 µg/mL	-	cytopathic effect / XTT	0–2%
O=C(C(=O)N1CCN(C(=O)c2ccccc2)CC1C(F)(F)F)c1c[nH]c2cccc(F)c12	-	HeLa + HELA CD4+/CCR5	10 µM	-	luciferase	91%
O=C1[C@@H](c2ccc(-c3ccccc3)cc2)NC(=S)N1c1ccccc1	-	MT-4	10 µg/mL	-	cytopathic effect / XTT	0%
CCOC(=O)c1cccc2c(C(=O)C(=O)N3CCN(C(=O)c4ccccc4)CC3)c[nH]c12	BRU	MT-2	10 µM	-	RT activity	>98%
C[C@H]1[C@H](O)[C@@H](C)/C=C/C=C/C=C/C=C/C=C/C=C/C=C/[C@H](O[C@@H]2O[C@H](C)[C@@H](O)[C@H](N)[C@@H]2O)C[C@@H]2O[C@](O)(C[C@@H](O)C[C@@H](O)CC[C@H](O)[C@@H](O)C[C@@H](O)CC(=O)O[C@H]1C)C[C@H](O)[C@H]2C(=O)O	CMU08 CLADE E X4 (SI)	PBMC	2.3 µM	-	p24 / RT activity	90%